Assays:
falcipain-3 = falcipain-3 (Plasmodium falciparum, UniProt Q8IIL0); assay: Falcipain-3 protease inhibition assay (Z-Leu-Arg-AMC); type: biochemical; conditions: read-out: IC50 falcipain-3
Procedure: (§1) Recombinant cruzain, rhodesain, TbCatB, falcipain-2 and falcipain-3 were expressed as described previously, [39], [40], [41], [42]. Inhibitor stock solutions were prepared in DMSO and screened at 0.1 µM for cruzain and rhodesain, 1 µM for TbCatB and 50 nM for falcipain-3 (0.5% DMSO in assay). […] Protease inhibition assays for cruzain and rhodesain were carried out in 96 well plate format as described previously. Cruzain (4 nM), rhodesain (4 nM) or TbCatB (258 nM) was incubated with test compound in 100 mM sodium acetate, pH 5.5, containing 5 mM DTT and 0.01% Triton X-100 (buffer A), for 5 min at room temperature (the higher concentration of TbCatB was required due to its lower intrinsic activity against the fluorogenic substrate). Then buffer A containing Z-Phe-Arg-AMC (Bachem) was added to enzyme-compound mixture to give 10 µM substrate in a final assay volume of 200 µL. The rate of free AMC release was measured at excitation and emission wavelengths of 355 and 460 nm, respectively, with a microtiter plate spectrofluorimeter (SpectraMax M5, Molecular Devices) for 3 min. Percentage inhibition of test compound was calculated relative to the DMSO control (0% inhibition control). IC50 values were determined with Prism 4 software (GraphPad, San Diego, CA) using sigmoidal dose-response variable slope model.
(§2) Protease inhibition assays for falcipain-2 and falcipain-3 were carried out in 96 well plate format as described previously, [43] with modification for end-point readout. Falcipain-2 (21 nM) or falcipain-3 (78 nM) was incubated with test compound for 10 min at room temperature in 200 mM sodium acetate, pH 6, 10 mM DTT and 3.6% glycerol and 0.01% Triton X-100 (buffer B). Then buffer B containing Z-Leu-Arg-AMC (Bachem) was added to the enzyme-compound mixture to give 25 µM substrate in a final assay volume of 200 µL. After 15 min, 50 µL of 5 M acetic acid was added to each well to stop the reaction. End-point fluorescence was read in a spectrofluorimeter as above. The 0% inhibition control wells contained DMSO while 100% inhibition control wells contained 50 µM E-64 (Sigma). Percentage inhibition of test compound was calculated relative to the controls and IC50 curve fitting was performed with Prism 4 software as above.

Sequences of proteins named here, by UniProt entry; tags and fusion partners are left off. Residues count along the entry.
UniProt Q8IIL0, 243-492 limits assumed: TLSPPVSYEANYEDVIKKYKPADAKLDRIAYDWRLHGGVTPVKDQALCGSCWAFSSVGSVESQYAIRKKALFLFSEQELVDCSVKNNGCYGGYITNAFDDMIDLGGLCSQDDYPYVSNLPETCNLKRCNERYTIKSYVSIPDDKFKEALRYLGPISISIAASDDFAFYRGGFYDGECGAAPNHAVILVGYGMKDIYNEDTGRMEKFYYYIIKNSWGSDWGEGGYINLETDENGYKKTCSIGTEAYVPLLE
UniProt Q8I6U4, 244-484 limits assumed: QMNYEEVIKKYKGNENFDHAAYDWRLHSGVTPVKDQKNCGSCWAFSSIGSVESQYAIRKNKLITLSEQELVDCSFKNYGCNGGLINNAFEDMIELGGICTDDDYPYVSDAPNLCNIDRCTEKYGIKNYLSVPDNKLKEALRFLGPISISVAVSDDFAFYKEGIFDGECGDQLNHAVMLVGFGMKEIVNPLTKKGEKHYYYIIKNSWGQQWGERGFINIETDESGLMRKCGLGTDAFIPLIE

falcipain-2 = falcipain-2 (Plasmodium falciparum, UniProt Q8I6U4); assay: Falcipain-2 protease inhibition assay (Z-Leu-Arg-AMC); type: biochemical; conditions: read-out: IC50 falcipain-2
Procedure: as §1, §2

[1] = test system: W2-strain P. falciparum parasites; assay: P. falciparum growth inhibition assay; type: cell-based, Plasmodium falciparum; conditions: cultured W2 strain, 48 hours; for GI50: read-out: GI50 P. falc. W2
Procedure: The growth inhibition assay for P. falciparum was conducted as described previously. W2-strain P. falciparum parasites (1% parasitemia, 2% hematocrit) were cultured at 37°C in human red blood cells under the atmosphere of 3% O2, 5% CO2 balance N2 in 0.2 mL of per well in medium RPMI-1640 supplemented with 10% human serum in duplicate 96-well flat bottom culture plates in the presence of inhibitors. Tested compounds were serially diluted 1∶3 in the range 10,000 – 4.6 nM, with maximum DMSO concentration of 0.1%. Following 48 hours of incubation, the medium was removed and the cells were fixed in 2% formaldehyde in PBS. Parasite growth was evaluated by flow cytometry on a FACsort (Becton Dickinson) equipped with AMS-1 loader (Cytek Development) after staining with 1 nM DNA dye YOYO-1(Molecular Probes) in 100 mM NH4Cl, 0.8% NaCl. Parasitemias were determined from dot plots (forward scatter vs. fluorescence) using […] software (Becton Dickinson). IC50 values for growth inhibition were determined from plots of percentage control parasitemia over inhibitor concentration using GraphPad Prism software.

**Q.** CSc1cccc(-c2cccc(C(=O)N[C@@H](CC(C)C)C(=O)NCC#N)c2)c1 was tested. Which IC50 (falcipain-3) did it give?
**A.** 28 nM

**Q.** And the IC50 (falcipain-2)?
**A.** 8.8 nM

**Q.** What about the GI50 [1] of the same molecule?
**A.** 3000 nM

**Q.** How did the IC50 (falcipain-3) turn out when CC(C)C[C@H](NC(=O)c1cccc(-c2ccccc2S(C)(=O)=O)c1)C(=O)NCC#N was run?
**A.** 16 nM

**Q.** And the IC50 (falcipain-2)?
**A.** 17 nM

**Q.** What about the “GI50 P. falc. W2” value [1] of the same molecule?
**A.** sub-micromolar

**Q.** What about the GI50 [1] of the same molecule?
**A.** 840 nM

**Q.** Which IC50 (falcipain-3) does the source give for COc1ccc(-c2csc(C(=O)N[C@@H](CC(C)C)C(=O)NCC#N)c2)cc1 here?
**A.** 25 nM

**Q.** What about the IC50 (falcipain-2) of the same molecule?
**A.** 18 nM

**Q.** What about the GI50 [1] of the same molecule?
**A.** 2700 nM

**Q.** How did the IC50 (falcipain-3) turn out when COc1cccc(-c2ccc(C(=O)N[C@@H](CC(C)C)C(=O)NCC#N)cc2)c1 was run?
**A.** 67 nM

**Q.** And the IC50 (falcipain-2)?
**A.** 75 nM

**Q.** What about the GI50 [1] of the same molecule?
**A.** 3500 nM

**Q.** How did the IC50 (falcipain-3) turn out when CC(C)C[C@H](NC(=O)c1ccc(-c2ccc(S(C)(=O)=O)cc2)cc1)C(=O)NCC#N was run?
**A.** 18 nM

**Q.** And the IC50 (falcipain-2)?
**A.** 28 nM

**Q.** What about the GI50 [1] of the same molecule?
**A.** 2200 nM

**Q.** What does the source list for CC(C)C[C@H](NC(=O)c1cc2c(C(F)(F)F)nn(C)c2s1)C(=O)NCC#N?
**A.** IC50 (falcipain-3): 15 nM; IC50 (falcipain-2): 50 nM; GI50 [1]: 3500 nM

**Q.** With CC(C)C[C@H](NC(=O)c1cc2c(-c3ccccc3)nn(C)c2s1)C(=O)NCC#N as the molecule, how does the IC50 (falcipain-3) read?
**A.** 5.2 nM

**Q.** What about the IC50 (falcipain-2) of the same molecule?
**A.** 24 nM

**Q.** What about the GI50 [1] of the same molecule?
**A.** > 20000 nM

**Q.** Which IC50 (falcipain-3) does the source give for Cc1ccccc1-c1cccc(C(=O)N[C@@H](CC(C)C)C(=O)NCC#N)c1 here?
**A.** 67 nM

**Q.** What about the IC50 (falcipain-2) of the same molecule?
**A.** 26 nM

**Q.** And the GI50 [1]?
**A.** > 20000 nM

**Q.** Which IC50 (falcipain-3) does the source give for CC(C)C[C@H](NC(=O)c1ccc(-c2ccccc2Cl)s1)C(=O)NCC#N here?
**A.** 23 nM

**Q.** And the IC50 (falcipain-2)?
**A.** 8.7 nM

**Q.** And the GI50 [1]?
**A.** 2000 nM

**Q.** How did the IC50 (falcipain-3) turn out when CC(C)C[C@H](NC(=O)c1ccc(-c2ccccc2F)cc1)C(=O)NCC#N was run?
**A.** 85 nM

**Q.** And the IC50 (falcipain-2)?
**A.** 68 nM

**Q.** And the GI50 [1]?
**A.** > 20000 nM

**Q.** Which IC50 (falcipain-3) does the source give for CC(C)C[C@H](NC(=O)c1ccc(-c2ccc(O)cc2)cc1)C(=O)NCC#N here?
**A.** 28 nM

**Q.** What about the IC50 (falcipain-2) of the same molecule?
**A.** 78 nM

**Q.** What about the GI50 [1] of the same molecule?
**A.** 4000 nM

From PMC3086806, “Mining a Cathepsin Inhibitor Library for New Antiparasitic Drug Leads” (PLoS Neglected Tropical Diseases, 2011)
